Biological target: S. aureus SrtA (Staphylococcus aureus, UniProt Q2FV99)
Assay: Sortase A FRET enzyme activity assay (hydrolysis of dabcyl-QALPETGEE-edans)
Assay type: biochemical
Conditions: read-out: IC50 (activity as sortase A inhibitors); 10 µM S. aureus sortase A, preincubated 1 h at 37 °C, 50 µM dabcyl-QALPETGEE-edans substrate

Protein sequences, listed by entry. Tags and fused reporters are not part of them. Residues count along the entry.
UniProt Q2FV99, 60-206 limits assumed: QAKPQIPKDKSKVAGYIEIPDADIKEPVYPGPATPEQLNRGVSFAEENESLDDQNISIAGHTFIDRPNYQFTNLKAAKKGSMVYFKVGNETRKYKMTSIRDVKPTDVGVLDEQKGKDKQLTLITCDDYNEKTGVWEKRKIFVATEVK

CCOC(=O)/C(=N\Nc1ccc(Cl)c(Cl)c1)C(=O)c1ccccc1
IC50: > 500 µM
